Results of unrelated studies side by side (data: NIAID ChemDB).

All rows: whole-cell or culture tests; organism: HIV-1; read by: cytopathic effect / MTT; measure: EC50

Rows are shuffled and stem from different studies.

{"structure": "CCn1c(Cc2ccccc2)c(C(C)C)[nH]c1=S", "cell line": "MT-4", "strain or isolate": "IIIB", "result": "5.06 µM"}
{"structure": "c1cc(CN2CCCNCCCNCCNCCC2)ccc1CN1CCCNCCCNCCNCCC1", "cell line": "MT-4", "mutations": "AMD3100-resistant", "strain or isolate": "NL4-3", "result": "2.65 µg/mL"}
{"structure": "CN(C)CCNc1ncnc2c1ncn2CCOCP(=O)(O)O", "cell line": "CEM", "strain or isolate": "IIIB", "result": ">100 µg/mL"}
{"structure": "O=[N+]([O-])c1cccc2c1ncn2[C@@H]1O[C@H](CO)[C@@H](O)[C@H]1O", "cell line": "MT-4", "strain or isolate": "IIIB", "result": ">125 µg/mL"}
{"structure": "C1CNCCNCCCN2CCCNCCNCCCN(C1)CC2", "cell line": "MT-4", "strain or isolate": "AOM", "result": "86.7 µg/mL"}
{"structure": "Fc1cccc(Cl)c1C1OCc2nc3ccccc3n21", "cell line": "CEM", "mutations": "RT-K103N", "strain or isolate": "TIBO R82150-resistant (RT K103N)", "result": ">14.69 µM"}
{"structure": "Cc1ccnc2c1NC(=O)c1cccnc1N2C1CC1", "cell line": "MT-4", "strain or isolate": "IIIB", "result": "0.12 µM"}
{"structure": "Clc1ccc2c(c1)N=C(N1CCNCC1)c1ccccc1N2", "cell line": "MT-2", "strain or isolate": "IIIB", "result": ">7 µg/mL"}
{"structure": "c1ccc2c(c1)Cn1cccc1-c1nncn1-2", "cell line": "MT-4", "strain or isolate": "IIIB", "result": ">300 µM"}
{"structure": "CC(=O)Oc1ccc(/C=C/C(=O)O[C@H](C(=O)O)[C@H](OC(=O)/C=C/c2ccc(OC(C)=O)c(OC(C)=O)c2)C(=O)O)cc1OC(C)=O", "cell line": "MT-4", "strain or isolate": "NL4-3", "result": "7.8 µM"}
{"structure": "c1ncc(CN2CCCNCCNCCCNCC2)cc1CN1CCCNCCNCCCNCC1", "cell line": "SupT1 + Sup-T1", "strain or isolate": "168.10", "result": "0.24 µg/mL"}
{"structure": "c1ccc(C2OCc3nc4ccccc4n32)cc1", "cell line": "CEM", "mutations": "RT-V106A", "strain or isolate": "Nevirapine-resistant (RT V106A)", "result": ">16.9 µM"}
{"structure": "CN1CCN(CC/C=C2/c3ccccc3Sc3ccc(S(=O)(=O)N(C)C)cc32)CC1", "cell line": "CEM-T4 + CEM", "strain or isolate": "IIIB", "result": ">8.4 µg/mL"}
{"structure": "CCOCn1c(SCC(N)=O)nc(CC)c1Cc1cc(C)cc(C)c1", "cell line": "MT-4", "strain or isolate": "IIIB", "result": "1.33 µM"}
{"structure": "Cc1cn([C@H]2C[C@H](N=[N+]=[N-])[C@@H](CO)O2)c(=O)[nH]c1=O", "cell line": "MT-4", "mutations": "RT-K103N Y181C", "strain or isolate": "A17", "result": "0.02 µM"}
{"structure": "Nc1nc(NC2CCCC2)c2ncn(CCOCP(=O)(O)O)c2n1", "cell line": "CEM", "strain or isolate": "IIIB", "result": "2 µg/mL"}
{"structure": "O=C1CN([C@@H]2O[C@H](CO)[C@@H](O)[C@@H]2O)C(=O)CN1", "cell line": "MT-4", "strain or isolate": "IIIB", "result": ">125 µg/mL"}
{"structure": "Nc1nc2c(ncn2[C@H]2CO[C@@H](CO)O2)c(=O)[nH]1", "cell line": "MT-2", "strain or isolate": "LAI WT", "result": "2.2 µM"}
{"structure": "CCOCn1c(Cc2ccccc2)c(C(C)C)c(=O)[nH]c1=O", "cell line": "MT-4", "strain or isolate": "IIIB", "result": "0.03 µM"}
{"structure": "CCOC(=O)C1c2cccn2S(=O)(=O)c2ccccc2N1c1ccc(C)cc1", "cell line": "MT-4", "strain or isolate": "IIIB", "result": ">300 µM"}
{"structure": "CCCCCNc1nc(N)nc2c1[nH]c[n+]2C[C@@H](C)OCP(=O)(O)O", "cell line": "MT-4", "strain or isolate": "IIIB", "result": "37.4 ± 13 µg/mL"}
{"structure": "c1ccc(-c2cc(CN3CCCNCCNCCCNCC3)ccc2CN2CCCNCCNCCCNCC2)cc1", "cell line": "MT-4", "mutations": "AMD3100-resistant", "strain or isolate": "NL4-3", "result": "12.1 µg/mL"}
{"structure": "CCN(CC)c1ncnc2c1ncn2CCOCP(=O)(O)O", "cell line": "CEM", "strain or isolate": "IIIB", "result": ">4 µg/mL"}
{"structure": "CC(C)=CCN1C(=O)c2cccn2S(=O)(=O)c2cc(Cl)ccc21", "cell line": "MT-4", "strain or isolate": "IIIB", "result": "129 µM"}
{"structure": "Nc1nc(NC2CC2)c2ncn([C@H]3C=C[C@@H](CO)C3)c2n1", "cell line": "MT-2", "strain or isolate": "LAI WT", "result": "2.5 µM"}
{"structure": "Cc1cn([C@H]2C[C@H](N=[N+]=[N-])[C@@H](CO)O2)c(=O)[nH]c1=O", "cell line": "CEM + CEM-SS", "strain or isolate": "LAV", "result": "0.005 µM"}
{"structure": "c1cc(CN2CCCNCCNCCCNCC2)ccc1CN1CCCNCCNCCCNCC1", "cell line": "MT-4", "strain or isolate": "NL4-(WT)", "result": "0.003 µg/mL"}
{"structure": "Cc1cn([C@H]2C[C@H](N=[N+]=[N-])[C@@H](CO)O2)c(=O)[nH]c1=O", "cell line": "MT-4", "mutations": "RT-K103N Y181C", "strain or isolate": "NNRTI-resistant (RT K103N Y181C)", "result": "0.07 µM"}
{"structure": "COc1cc(CN2CCCNCCNCCCNCC2)c(OC)cc1CN1CCCNCCNCCCNCC1", "cell line": "MT-4", "strain or isolate": "AOM", "result": "0.03 µg/mL"}
{"structure": "O=C1c2cccn2S(=O)(=O)c2ccccc2N1C1CC1", "cell line": "MT-4", "strain or isolate": "IIIB", "result": "60 µM"}
{"structure": "CCOCn1c(SCC(N)=O)nc(CC)c1CC1CCCCC1", "cell line": "MT-4", "strain or isolate": "IIIB", "result": "22.85 µM"}
{"structure": "O=c1[nH]cnc2c1ncn2[C@H]1CC[C@@H](CO)O1", "cell line": "MT-4", "mutations": "RT-K103N Y181C", "strain or isolate": "NNRTI-resistant (RT K103N Y181C)", "result": "9 µM"}
{"structure": "OCCOCCN1CCN(C2=Nc3ccccc3Sc3ccccc32)CC1", "cell line": "CEM-T4 + CEM", "strain or isolate": "IIIB", "result": ">68 µg/mL"}
{"structure": "Fc1cccc(F)c1[C@@H]1SCc2nc3ccccc3n21", "cell line": "MT-4", "strain or isolate": "RF", "result": "0.4 µg/mL"}
{"structure": "O=C(CN1C(=O)c2cccn2S(=O)(=O)c2ccccc21)OCc1ccccc1", "cell line": "MT-4", "strain or isolate": "IIIB", "result": ">300 µM"}
{"structure": "Cc1ccnc2c1NC(=O)c1cccnc1N2C1CC1", "cell line": "MT-4", "mutations": "RT-L100I", "strain or isolate": "TIBO-resistant L100I (RT-L100I)", "result": "0.71 µM"}
{"structure": "CC(=O)c1ccc(C)cc1NC(C(N)=O)c1c(Cl)cccc1Cl", "cell line": "MT-4", "strain or isolate": "IIIB", "result": "0.013 µM"}
{"structure": "c1ccc2c(CN3CCCNCCNCCCNCC3)cc(CN3CCCNCCNCCCNCC3)cc2c1", "cell line": "SupT1 + Sup-T1", "strain or isolate": "168.10", "result": "0.24 µg/mL"}
{"structure": "O=S1(=O)c2ccccc2NCc2cccn21", "cell line": "MT-4", "strain or isolate": "IIIB", "result": ">129 µM"}
{"structure": "COC(=O)c1cc(CN2CCCNCCNCCCNCC2)ccc1CN1CCCNCCNCCCNCC1", "cell line": "MT-4", "strain or isolate": "NL4-3", "result": "0.81 µg/mL"}
{"structure": "Nc1nc(N2CCOCC2)c2ncn(CCOCP(=O)(O)O)c2n1", "cell line": "CEM", "strain or isolate": "IIIB", "result": ">20 µg/mL"}
{"structure": "COc1c(O)c(I)c2c(c1OC)-c1c(c(I)c(O)c(OC)c1OC)C[C@H](C)[C@H](C)C2", "cell line": "MT-4", "strain or isolate": "IIIB", "result": "0.39 µM"}
{"structure": "Oc1ccc2c(c1)Nc1ccccc1C(N1CCNCC1)=N2", "cell line": "CEM-T4 + CEM", "strain or isolate": "IIIB", "result": ">173 µg/mL"}
{"structure": "CCCN1C(=O)c2cccn2S(=O)(=O)c2ccccc21", "cell line": "MT-4", "strain or isolate": "IIIB", "result": "26 µM"}
{"structure": "Cc1cn([C@H]2C=C[C@@H](CO)O2)c(=O)[nH]c1=O", "cell line": "MT-4", "mutations": "RT-Y181C", "strain or isolate": "NNRTI-resistant (RT Y181C)", "result": "0.4 µM"}

3 of the rows above, restated:

structure | cell line | mutations | strain or isolate | result
Fc1cccc(Cl)c1C1OCc2nc3ccccc3n21 | CEM | RT-K103N | TIBO R82150-resistant (RT K103N) | >14.69 µM
c1cc(CN2CCCNCCNCCCNCC2)ccc1CN1CCCNCCNCCCNCC1 | MT-4 |  | NL4-(WT) | 0.003 µg/mL
Nc1nc2c(ncn2[C@H]2CO[C@@H](CO)O2)c(=O)[nH]1 | MT-2 |  | LAI WT | 2.2 µM

An empty or dashed field is not shown. ECn is the concentration giving n% inhibition of infection, replication or growth.